Amino acid sequences for entries named in this document (tags omitted). A change or cut given only in a name is not applied to a line headed by its entry.
UniProt P29837: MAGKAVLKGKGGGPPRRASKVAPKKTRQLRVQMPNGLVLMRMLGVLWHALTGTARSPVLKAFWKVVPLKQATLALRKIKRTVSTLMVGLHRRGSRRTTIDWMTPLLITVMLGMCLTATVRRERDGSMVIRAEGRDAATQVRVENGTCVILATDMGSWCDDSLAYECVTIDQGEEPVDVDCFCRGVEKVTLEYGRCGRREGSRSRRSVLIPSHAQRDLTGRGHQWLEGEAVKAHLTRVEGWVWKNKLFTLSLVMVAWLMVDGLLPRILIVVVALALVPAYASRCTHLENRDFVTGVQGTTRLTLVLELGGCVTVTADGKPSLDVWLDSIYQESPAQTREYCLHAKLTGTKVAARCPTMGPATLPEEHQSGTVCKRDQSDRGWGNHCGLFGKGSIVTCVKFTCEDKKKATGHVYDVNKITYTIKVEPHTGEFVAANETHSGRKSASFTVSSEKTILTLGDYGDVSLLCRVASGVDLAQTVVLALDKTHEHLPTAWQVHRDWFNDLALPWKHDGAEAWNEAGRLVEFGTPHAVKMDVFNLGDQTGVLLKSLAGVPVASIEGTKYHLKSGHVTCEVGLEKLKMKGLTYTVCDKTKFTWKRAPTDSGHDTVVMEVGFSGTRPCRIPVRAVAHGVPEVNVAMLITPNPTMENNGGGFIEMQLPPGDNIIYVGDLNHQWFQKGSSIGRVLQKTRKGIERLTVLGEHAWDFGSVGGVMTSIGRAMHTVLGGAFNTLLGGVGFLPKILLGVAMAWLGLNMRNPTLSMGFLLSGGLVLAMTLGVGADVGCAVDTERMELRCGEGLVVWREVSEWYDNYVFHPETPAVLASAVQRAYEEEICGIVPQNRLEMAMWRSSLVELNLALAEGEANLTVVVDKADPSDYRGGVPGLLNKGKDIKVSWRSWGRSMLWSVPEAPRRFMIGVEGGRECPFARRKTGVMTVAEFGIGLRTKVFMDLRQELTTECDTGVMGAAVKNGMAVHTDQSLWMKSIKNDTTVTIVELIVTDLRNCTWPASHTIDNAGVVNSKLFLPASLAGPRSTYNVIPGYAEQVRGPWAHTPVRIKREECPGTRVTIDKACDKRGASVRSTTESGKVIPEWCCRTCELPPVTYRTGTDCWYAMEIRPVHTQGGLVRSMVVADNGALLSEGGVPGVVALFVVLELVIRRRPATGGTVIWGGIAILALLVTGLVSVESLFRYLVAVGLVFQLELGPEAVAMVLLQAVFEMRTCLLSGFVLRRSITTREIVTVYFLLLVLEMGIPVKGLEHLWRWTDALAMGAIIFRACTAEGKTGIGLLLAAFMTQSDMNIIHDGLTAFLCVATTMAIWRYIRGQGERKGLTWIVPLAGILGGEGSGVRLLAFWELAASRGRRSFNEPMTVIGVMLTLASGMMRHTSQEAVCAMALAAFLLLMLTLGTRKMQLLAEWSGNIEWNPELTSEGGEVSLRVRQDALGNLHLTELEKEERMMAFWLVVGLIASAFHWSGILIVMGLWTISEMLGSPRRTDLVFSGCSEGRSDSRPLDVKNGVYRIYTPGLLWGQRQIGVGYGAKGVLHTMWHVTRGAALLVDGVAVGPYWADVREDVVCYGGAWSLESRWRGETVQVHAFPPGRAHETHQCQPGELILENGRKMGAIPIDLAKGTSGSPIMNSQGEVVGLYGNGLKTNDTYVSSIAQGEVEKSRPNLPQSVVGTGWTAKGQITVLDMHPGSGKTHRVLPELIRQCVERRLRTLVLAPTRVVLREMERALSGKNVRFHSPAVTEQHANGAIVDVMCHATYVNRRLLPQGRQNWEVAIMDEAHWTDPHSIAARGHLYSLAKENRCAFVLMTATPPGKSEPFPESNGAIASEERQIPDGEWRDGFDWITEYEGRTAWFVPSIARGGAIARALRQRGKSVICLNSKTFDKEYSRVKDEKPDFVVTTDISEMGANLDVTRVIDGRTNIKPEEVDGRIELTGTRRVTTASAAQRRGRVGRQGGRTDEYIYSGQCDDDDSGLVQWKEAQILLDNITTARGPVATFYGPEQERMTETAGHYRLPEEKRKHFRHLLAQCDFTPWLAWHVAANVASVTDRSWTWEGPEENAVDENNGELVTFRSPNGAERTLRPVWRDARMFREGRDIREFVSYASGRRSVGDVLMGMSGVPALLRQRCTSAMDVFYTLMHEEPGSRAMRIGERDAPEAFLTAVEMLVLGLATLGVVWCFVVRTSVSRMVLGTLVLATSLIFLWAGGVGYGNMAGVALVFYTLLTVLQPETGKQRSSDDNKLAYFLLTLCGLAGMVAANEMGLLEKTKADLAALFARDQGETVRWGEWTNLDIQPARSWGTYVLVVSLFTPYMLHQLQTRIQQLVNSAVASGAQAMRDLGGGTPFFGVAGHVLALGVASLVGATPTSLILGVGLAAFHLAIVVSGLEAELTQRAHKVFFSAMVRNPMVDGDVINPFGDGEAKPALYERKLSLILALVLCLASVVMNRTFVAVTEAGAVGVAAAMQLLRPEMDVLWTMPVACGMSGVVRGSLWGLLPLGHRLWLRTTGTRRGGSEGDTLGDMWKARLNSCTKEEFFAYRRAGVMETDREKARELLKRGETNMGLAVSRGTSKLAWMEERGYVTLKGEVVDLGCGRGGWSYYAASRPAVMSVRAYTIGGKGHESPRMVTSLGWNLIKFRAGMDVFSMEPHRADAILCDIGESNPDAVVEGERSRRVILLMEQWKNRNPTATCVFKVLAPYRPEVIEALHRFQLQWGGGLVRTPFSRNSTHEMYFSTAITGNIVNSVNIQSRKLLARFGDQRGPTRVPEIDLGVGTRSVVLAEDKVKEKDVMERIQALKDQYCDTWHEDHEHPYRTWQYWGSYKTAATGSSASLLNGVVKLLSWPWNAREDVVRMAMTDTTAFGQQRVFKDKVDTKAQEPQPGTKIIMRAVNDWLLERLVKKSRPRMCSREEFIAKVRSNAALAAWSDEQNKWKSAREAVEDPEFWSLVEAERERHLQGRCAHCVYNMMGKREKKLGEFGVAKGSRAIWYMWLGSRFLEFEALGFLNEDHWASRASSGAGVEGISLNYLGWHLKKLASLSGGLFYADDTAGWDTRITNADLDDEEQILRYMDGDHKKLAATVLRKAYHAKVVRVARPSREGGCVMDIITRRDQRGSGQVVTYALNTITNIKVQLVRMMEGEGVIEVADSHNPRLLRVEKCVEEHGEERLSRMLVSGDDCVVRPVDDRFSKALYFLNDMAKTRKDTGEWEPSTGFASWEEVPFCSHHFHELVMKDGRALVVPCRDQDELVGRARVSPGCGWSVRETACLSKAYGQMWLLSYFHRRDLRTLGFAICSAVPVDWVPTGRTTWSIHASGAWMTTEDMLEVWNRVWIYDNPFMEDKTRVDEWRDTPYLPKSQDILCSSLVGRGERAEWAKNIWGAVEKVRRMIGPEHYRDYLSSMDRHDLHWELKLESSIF

According to US6958151B2 (priority 2002, dated 2005):

Target: LGT-E-D3 (Langat virus, UniProt P29837)
Test: Phage display selection by binding to E-D3

Sequence | selected by binding (phage display)
RCCGYACKEGKNCR | selected by binding to LGT-E-D3
RCCTAVCKEGKKCR | selected by binding to LGT-E-D3
RCCVLACKEGKKCR | selected by binding to LGT-E-D3
